Values quoted from earlier work as cited in paper PMC5540582.

Target: HIV-1 capsid protein CA CA (Human immunodeficiency virus 1) (UniProt O93182)

## Cyclophilin A (from UniProt P62937)
  Kd: 16 µM
